Measured values from several laboratories, pooled; numbers as filed in NIAID ChemDB.

All rows: growth or infection tests; species: Aspergillus fumigatus; measure: MIC

a–b is a range or a potency band. Conditions beyond the fields shown may differ between rows. Blank or dashed fields: not listed here.

structure,strain or isolate,method,result
Cc1ccc(C2=NN(Cc3n[nH]c(=S)n3-c3ccc(Br)cc3)C(=O)CC2)cc1,,,8 µg/mL
CCCCCOc1ccc(-c2cc(-c3ccc(C(=O)N[C@H]4C[C@@H](O)[C@@H](O)NC(=O)[C@@H]5[C@@H](O)[C@@H](C)CN5C(=O)[C@H]([C@H](O)CC(N)=O)NC(=O)[C@H]([C@H](O)[C@@H](O)c5ccc(O)c(OS(=O)(=O)O)c5)NC(=O)[C@@H]5C[C@@H](O)CN5C(=O)[C@H]([C@@H](C)O)NC4=O)cc3)no2)cc1,4 strains,,≤0.0078 µg/mL
C[C@H]1[C@H](O)[C@@H](C)/C=C/C=C/C=C/C=C/C=C/C=C/C=C/[C@H](O[C@@H]2O[C@H](C)[C@@H](O)[C@H](N)[C@@H]2O)C[C@@H]2O[C@](O)(C[C@@H](O)C[C@@H](O)CC[C@H](O)[C@@H](O)C[C@@H](O)CC(=O)O[C@H]1C)C[C@H](O)[C@H]2C(=O)O,,agar diffusion,20 µg/mL
Cc1nc(N)nc(N)c1C#CC(C)(C)C,,,12.5 µg/mL
CN(Cc1cccc2ccsc12)/N=C\c1ccc(F)cc1,,,>64 µg/mL
CCCCCOc1ccc(-c2cc(-c3ccc(C(=O)N[C@H]4C[C@@H](O)[C@@H](O)NC(=O)[C@@H]5[C@@H](O)[C@@H](C)CN5C(=O)[C@H]([C@H](O)CC(N)=O)NC(=O)[C@H]([C@H](O)[C@@H](O)c5ccc(O)c(OS(=O)(=O)O)c5)NC(=O)[C@@H]5C[C@@H](O)CN5C(=O)[C@H]([C@@H](C)O)NC4=O)cc3)no2)cc1,FP1305,broth dilution,>50 µg/mL
Cc1cccc(CSc2cc(C(N)=S)ccn2)c1,231,,125 µM
CN(Cc1cccc2ccccc12)/N=C\c1ccc(F)cc1,,,>64 µg/mL
C[n+]1c2cccc(O)c2cc2sc3ccccc3c21,ATCC 90906,broth dilution,>20 µg/mL
CN1CCN(c2nc(Nc3ccc(C#N)c(C(F)(F)F)c3)nc(Oc3ncnc4ccccc34)n2)CC1,MTCC 343,,>100 µg/mL
C[C@@H](n1ccn(-c2ccc(F)cc2)c1=O)C(O)(Cn1cncn1)c1ccc(F)cc1F,437,,16 µg/mL
COC(=O)N[C@H](C(=O)NN(CCC[C@@]1(Cc2ccccc2)C(=O)N(C2c3ccccc3C[C@H]2O)C[C@H]1O)Cc1ccc(-c2ccccn2)cc1)C(C)(C)C,RCMB 002003,agar,15.6 µg/mL
N#Cc1ccc(Nc2nc(Oc3ncnc4ccccc34)nc(N3CCN(c4ccccn4)CC3)n2)cc1C(F)(F)F,MTCC 343,,>100 µg/mL
C[C@@H](c1ncncc1F)[C@](O)(Cn1cncn1)c1ccc(F)cc1F,,broth dilution,0.5 µg/mL
O=C1CCC(c2ccc(Cl)cc2)=NN1Cc1n[nH]c(=S)n1-c1ccc(Cl)cc1,,,3 µg/mL
COc1cc(NS(=O)(=O)c2ccc(N)cc2)nc(OC)n1,IFM 41362,,128 µg/mL
N#Cc1ccc(Nc2nc(Oc3ncnc4ccccc34)nc(N3CCN(c4ccccc4)CC3)n2)cc1C(F)(F)F,MTCC 343,,>100 µg/mL
COC(=O)C1OC2(CCCC(OC(C)=O)C(C)C/C=C/c3ccccc3)OC(C(=O)O)(C(OC(=O)CCCCCC/C=C/c3ccccc3)C2O)C1(O)C(=O)O,10569,,3.1 µg/mL
CC1(C)O[C@H]2[C@@H](O1)[C@@H](C1=NOC(Cc3ccc(O)cc3)C1)O[C@@H]1OC(C)(C)O[C@@H]12,,,>50 µg/mL
O=C1C[C@@H](c2ccc(F)c(Br)c2)Cc2cc(O)cc(O)c21,Clinical isolate H237,,>706 µg/mL
NC(=S)c1ccnc(SCc2cccc(Cl)c2)c1,231,,62.5 µM
CO[C@@H]1[C@H]2OC(C)(C)O[C@H]2O[C@@H]1C1=NOC(C)C1C(=O)O,,,>50 µg/mL
C[C@@H](c1ncncc1F)[C@](O)(Cn1cncn1)c1ccc(F)cc1F,,XTT,0.5 µg/mL
COC(=O)/C=C/c1ccccc1,,broth dilution / resazurin,250 µg/mL
COC(=O)N[C@H](C(=O)NN(CC[C@@]1(Cc2ccccc2)C(=O)N(C2c3ccccc3C[C@H]2O)C[C@@H]1O)Cc1ccc(-c2cccnc2)cc1)C(C)(C)C,RCMB 002003,agar,7.8 µg/mL
O=C1C[C@@H](c2ccc(F)c(Cl)c2)Cc2cc(O)cc(O)c21,Clinical isolate H237,,617 µg/mL
N=c1oc2ccccc2c2csc(N)c12,,broth dilution,16 µg/mL
Cc1noc(NS(=O)(=O)c2ccc(N)cc2)c1C,IFM 48051,,128 µg/mL
CCCCC/C=C\C/C=C\CCCCCCCC(=O)N[C@H]1C[C@@H](O)[C@@H](O)NC(=O)[C@@H]2[C@@H](O)[C@@H](C)CN2C(=O)[C@H]([C@H](C)O)NC(=O)[C@H]([C@H](O)[C@@H](O)c2ccc(O)cc2)NC(=O)[C@@H]2C[C@@H](O)CN2C(=O)[C@H]([C@H](C)O)NC1=O,,,>20 µg/mL
NC(=S)c1ccnc(SCc2cccc(Br)c2)c1,231,,>500 µM
CCOC(=O)C1CC([C@H]2O[C@@H]3OC(C)(C)O[C@@H]3[C@H]2OCc2ccccc2)=NO1,,,>50 µg/mL
COC(=O)N[C@H](C(=O)NN(CC[C@@]1(Cc2ccccc2)C(=O)N(C2c3ccccc3C[C@H]2O[Si](C)(C)C(C)(C)C)C[C@@H]1O[Si](C)(C)C(C)(C)C)Cc1ccc(Br)cc1)C(C)(C)C,RCMB 002003,agar,15.6 µg/mL
Cc1cc2c3c(N)nc(N)nc3ccc2n1C,,,>50 µg/mL
COC(=O)N[C@H](C(=O)NN(CCC[C@@]1(Cc2ccccc2)C(=O)N(C2c3ccccc3C[C@H]2O)C[C@H]1O)Cc1ccc(-c2cccnc2)cc1)C(C)(C)C,RCMB 002003,agar,7.8 µg/mL
COc1ccc(/C=N\N(C)Cc2cccc3ccccc23)cc1,,,>64 µg/mL
O=C1CCC(c2ccc(Cl)cc2)=NN1Cc1n[nH]c(=S)n1-c1ccc(Br)cc1,,,5 µg/mL
O=C(Nc1c(F)cccc1F)OCCCN1CCN(c2nc3ccccc3s2)CC1,CF1003,,0.15 µg/mL
C[C@@H](N1CCN(c2ccc(OC(F)(F)C(F)F)cc2)C1=O)C(O)(Cn1cncn1)c1ccc(F)cc1F,437,,0.25 µg/mL
CO[C@@H]1[C@H]2OC(C)(C)O[C@H]2O[C@@H]1C1=NOC(C(C)=O)C1,,,>50 µg/mL
CN(Cc1cccc2ccsc12)/N=C\c1ccc(Cl)cc1,,,>64 µg/mL
CO[C@@H]1[C@H]2OC(C)(C)O[C@H]2O[C@@H]1C1=NOC(Cc2ccc(O)cc2)C1,,,>50 µg/mL
CCC(C)C#Cc1c(C)nc(N)nc1N,,,6.2 µg/mL
C[C@H]1[C@H](O)[C@@H](C)/C=C/C=C/C=C/C=C/C=C/C=C/C=C/[C@H](O[C@@H]2O[C@H](C)[C@@H](O)[C@H](N)[C@@H]2O)C[C@@H]2O[C@](O)(C[C@@H](O)C[C@@H](O)CC[C@H](O)[C@@H](O)C[C@@H](O)CC(=O)O[C@H]1C)C[C@H](O)[C@H]2C(=O)O,4 strains,,0.2–2 µg/mL
Cc1nnc(NS(=O)(=O)c2ccc(N)cc2)s1,IFM 53412,,≥256 µg/mL
C[C@@H](n1ccn(-c2ccc(OC(F)(F)C(F)F)cc2)c1=O)C(O)(Cn1cncn1)c1ccc(F)cc1F,TIMM1728,,1 µg/mL
COc1ccc(/C=N\N(C)Cc2cccc3ccsc23)cc1,,,>64 µg/mL
C[C@H]1[C@H](O)[C@@H](C)/C=C/C=C/C=C/C=C/C=C/C=C/C=C/[C@H](O[C@@H]2O[C@H](C)[C@@H](O)[C@H](N)[C@@H]2O)C[C@@H]2O[C@](O)(C[C@@H](O)C[C@@H](O)CC[C@H](O)[C@@H](O)C[C@@H](O)CC(=O)O[C@H]1C)C[C@H](O)[C@H]2C(=O)O,,XTT,0.5 µg/mL
O=C1CCC(c2ccccc2)=NN1Cc1n[nH]c(=S)n1-c1ccccc1,,,4 µg/mL
C/C=C/C=C(/C)C(=O)O[C@H]1[C@H](O)[C@H](OCC23C4C=C(C(C)C)C2(C(=O)O)C(C=O)(C4)[C@@H]2CC[C@@H](C)[C@H]23)O[C@H](C)[C@H]1OC,48238,,>125 µg/mL
CO[C@@H]1[C@H]2OC(C)(C)O[C@H]2O[C@@H]1C1=NOC(OC(C)=O)C1,,,>50 µg/mL
NC(=S)c1ccnc(SCc2c(F)cccc2Cl)c1,231,,>500 µM
Cc1cccc(/C=N\N(C)Cc2cccc3ccccc23)c1,,,>64 µg/mL
CC[C@@H]1OC(=O)[C@H](C)C(=O)C(O)(CO)C/C(Cl)=C/[C@@H](C)Cc2cccc1c2,TIMM1776,,>64 µg/mL
Cc1cc(NS(=O)(=O)c2ccc(N)cc2)no1,IFM 48051,,64 µg/mL
CC(=O)C1CC([C@H]2O[C@@H]3OC(C)(C)O[C@@H]3[C@H]2OCc2ccccc2)=NO1,,,>50 µg/mL
CCC(C)CC(C)CCCCCCCCC(=O)N[C@H]1C[C@@H](O)[C@H](NCCN)NC(=O)[C@@H]2[C@@H](O)CCN2C(=O)[C@H]([C@H](O)CCN)NC(=O)[C@H]([C@H](O)[C@@H](O)c2ccc(O)cc2)NC(=O)[C@@H]2C[C@@H](O)CN2C(=O)[C@H]([C@@H](C)O)NC1=O,28 isolates,,0.25 µg/mL
COc1cnc2c3c(nccc13)C(=O)c1ccccc1-2,ATCC 26934,,3.12 µg/mL
NC(=S)c1ccnc(SCc2cccc(F)c2)c1,231,,>1000 µM
CC1(C)O[C@H]2O[C@H](C3=NOC(CBr)C3)[C@H](OCc3ccccc3)[C@H]2O1,,,>50 µg/mL
Cc1nc(N)nc(N)c1C#CC(C)C,,,12.5 µg/mL
C=C1/C=C(\C)[C@H](CC)OC(=O)[C@H](C)C(=O)C(O)(CO)C/C(OC)=C/[C@@H](C)C1,MF5668,,>200 µg/mL

4 of the rows above, restated:

structure,strain or isolate,method,result
CO[C@@H]1[C@H]2OC(C)(C)O[C@H]2O[C@@H]1C1=NOC(Cc2ccc(O)cc2)C1,,,>50 µg/mL
C[C@@H](n1ccn(-c2ccc(OC(F)(F)C(F)F)cc2)c1=O)C(O)(Cn1cncn1)c1ccc(F)cc1F,TIMM1728,,1 µg/mL
CN(Cc1cccc2ccsc12)/N=C\c1ccc(F)cc1,,,>64 µg/mL
N#Cc1ccc(Nc2nc(Oc3ncnc4ccccc34)nc(N3CCN(c4ccccc4)CC3)n2)cc1C(F)(F)F,MTCC 343,,>100 µg/mL